Values from PubChem BioAssay AID624099 (ICCB-Longwood, 2012).

Assay: 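Knock-downs relieving repression by E2 of an HPV18 LCR luciferase reporter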 (primary screen)
Cells: human C33A cervical carcinoma cells (HPV-negative) stably expressing BPV1 E2 and an HPV18 LCR luciferase reporter
Knock-down reagent: siRNA pool against human genes, 40 nM
Time to read-out: 72 h
Measurement: 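HPV18 LCR reporter light per well, converted to plate-wise z-scores that exclude control wells, and averaged over triplicate plates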
Direction: mean z-score and z-score: higher = stronger reporter signal, weaker E2 silencing
Rule for the call: 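Hit if mean z-score reaches 2 and two or more of three replicate z-scores also reach 2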
Shown is one part, drawn at random, of about 21,000 reagents tested. Over the whole deposit, 497 (2.4%) are marked active. 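Higher z means weaker E2 silencing; only reporter increases were scored, and knock-downs that hurt cell survival may mask genuine repressor factors.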 Reagent sequences are not shown.

CCM2 — mean z-score: 0.09; z-score, replicate A: -0.19; z-score, replicate B: 0.06; z-score, replicate C: 0.41; call: inactive
COA1 — mean z-score: 0.65; z-score, replicate A: 0.56; z-score, replicate B: 0.64; z-score, replicate C: 0.74; call: inactive
ILDR2 — mean z-score: -0.05; z-score, replicate B: 0.16; z-score, replicate C: -0.25; call: inactive
PLEKHO1 — mean z-score: 0.14; z-score, replicate A: -0.03; z-score, replicate B: 0.16; z-score, replicate C: 0.3; call: inactive
PKD1 — mean z-score: -0.43; z-score, replicate A: -0.1; z-score, replicate B: -0.32; z-score, replicate C: -0.87; call: inactive
OTOF — mean z-score: -0.21; z-score, replicate A: -0.37; z-score, replicate B: -0.32; z-score, replicate C: 0.05; call: inactive
ZNF345 — mean z-score: 0.48; z-score, replicate A: 0.74; z-score, replicate B: 0.27; z-score, replicate C: 0.43; call: inactive
SYNPO2L — mean z-score: 0.56; z-score, replicate A: 0.42; z-score, replicate B: 0.45; z-score, replicate C: 0.82; call: inactive
FRS3 — mean z-score: 0.14; z-score, replicate A: 0.21; z-score, replicate B: 0.2; z-score, replicate C: 0.02; call: inactive
VAT1L — mean z-score: 0.45; z-score, replicate A: 0.58; z-score, replicate B: 0.81; z-score, replicate C: -0.04; call: inactive
NUDT4 — mean z-score: 0.02; z-score, replicate A: 0.4; z-score, replicate B: -0.26; z-score, replicate C: -0.07; call: inactive
SPRR4 — mean z-score: -0.17; z-score, replicate A: -0.43; z-score, replicate B: -0.31; z-score, replicate C: 0.24; call: inactive
KNTC1 — mean z-score: 0.09; z-score, replicate A: -0.05; z-score, replicate B: 0.23; z-score, replicate C: 0.09; call: inactive
RXRB — mean z-score: -0.34; z-score, replicate A: -0.28; z-score, replicate B: -0.3; z-score, replicate C: -0.45; call: inactive
PRKCI — mean z-score: -0.86; z-score, replicate A: -1.04; z-score, replicate B: -1.02; z-score, replicate C: -0.54; call: inactive
LOC387701 (retired record) — mean z-score: 0.42; z-score, replicate A: 0.24; z-score, replicate B: 0.68; z-score, replicate C: 0.33; call: inactive
PSMD7 — mean z-score: -1.57; z-score, replicate A: -2.12; z-score, replicate B: -1.38; z-score, replicate C: -1.21; call: inactive
C14orf81 (retired record) — mean z-score: 1.72; z-score, replicate A: 1.91; z-score, replicate B: 1.68; z-score, replicate C: 1.55; call: inactive
SERHL2 — mean z-score: 1.02; z-score, replicate A: 0.91; z-score, replicate B: 0.91; z-score, replicate C: 1.25; call: inactive
FNBP1 — mean z-score: 0.16; z-score, replicate A: 0.06; z-score, replicate B: 0.05; z-score, replicate C: 0.37; call: inactive
BAMBI — mean z-score: 0.32; z-score, replicate A: 0.33; z-score, replicate B: 0.03; z-score, replicate C: 0.6; call: inactive

A few values from the list:
Value of OTOF in “z-score, replicate C”: 0.05
For “mean z-score”, BAMBI shows 0.32
PLEKHO1, mean z-score: 0.14
